Assay results published in US5451518A, “Purified human ceramide-activated protein kinase” (Sloan-Kettering Institute for Cancer Research, priority 1992, dated 1995).

System: ceramide-activated protein kinase

cholera toxin [reference compound]
effect on kinase activity (in words): not stimulated
